# Laboratory results from PubChem BioAssay AID1259310 (The Scripps Research Institute Molecular Screening Center, 2017).
# Chains of the proteins cited; added tags and fusions are not shown.
# UniProt Q969H0, whole entry, looked up: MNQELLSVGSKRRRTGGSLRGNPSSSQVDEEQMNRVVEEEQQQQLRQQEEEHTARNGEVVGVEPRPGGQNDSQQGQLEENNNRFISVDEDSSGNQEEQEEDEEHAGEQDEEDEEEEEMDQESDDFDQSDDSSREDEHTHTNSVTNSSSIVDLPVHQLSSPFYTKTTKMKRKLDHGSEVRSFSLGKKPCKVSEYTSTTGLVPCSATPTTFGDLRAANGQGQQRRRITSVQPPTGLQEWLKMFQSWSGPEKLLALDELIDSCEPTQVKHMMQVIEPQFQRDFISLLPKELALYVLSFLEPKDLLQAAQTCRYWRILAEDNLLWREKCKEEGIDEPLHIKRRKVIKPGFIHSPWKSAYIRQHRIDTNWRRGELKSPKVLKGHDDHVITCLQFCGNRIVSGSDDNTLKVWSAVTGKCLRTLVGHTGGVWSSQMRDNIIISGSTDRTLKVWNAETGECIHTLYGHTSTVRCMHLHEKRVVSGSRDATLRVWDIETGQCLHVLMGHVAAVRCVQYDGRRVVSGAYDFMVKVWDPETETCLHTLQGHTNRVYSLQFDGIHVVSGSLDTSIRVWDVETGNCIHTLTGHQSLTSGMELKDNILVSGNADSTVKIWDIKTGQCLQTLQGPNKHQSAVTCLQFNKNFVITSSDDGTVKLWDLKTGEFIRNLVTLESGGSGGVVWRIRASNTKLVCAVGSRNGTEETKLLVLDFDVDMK
# The list shows a part of the results, in another mix than the full data. Calls of active or inactive are those of the source. No stated cut-off is given here; in the data, active means normalized activity above about 1.9%; inactive means the rest.
# Target: F-box/WD repeat-containing protein 7 (Homo sapiens) (UniProt Q969H0)
# Assay: FBW7 E3 ligase activators, primary screen, biochemical, AlphaScreen, human (AID 1259310);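 further: purified mutant Fbw7 with reduced substrate affinity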
# Details: AlphaScreen FBW7–phospho-cyclin E peptide binding, activator screen; at 26.1 µM; active compounds read high
row,SMILES,normalized activity (activation)
1,O=C(O)Cc1ccc(N(CCCl)CCCl)cc1,inactive: -0.43%
